Earlier results on two molecules are cited in PMC13065029 (PLOS One, 2026).

Each structure is given as a SMILES string. Like-named read-outs stand apart in the source and are kept apart here.

For data set [1], the target named is T1, CHIKV nsP2^pro (Chikungunya virus, UniProt Q8JUX6). To be noted: cited from earlier work.
For data set [2], the target named is T1, CHIKV nsP2^pro. The conditions noted are these: read-out: IC₅₀; FRET; ref [69]; cited from earlier work.
Data set [3] deals with T1, CHIKV nsP2^pro. To be noted: fluorometry; ref [69]; cited from earlier work.

For `CCOc1ccccc1-c1cc(C(=O)NC/C=C/S(C)(=O)=O)[nH]n1`, the “Inhibition Mode” value in data set [1] (ref [60]) was “Covalent (Cys- binding)”.
Usually Kd stands for the free concentration of one partner at which half of the binding sites on the other are occupied at equilibrium, for simple one-to-one binding. For `Cc1nc2ccccc2n1CN1C(=O)C(=NNC(N)=S)c2ccccc21`, the IC50 in data set [2] was 32 µM. The Kd in data set [3] was 6.1 µM. Moreover, the “Inhibition Mode” value in data set [1] (ref [69]) is listed as “Competitive”.
